Measured values from several laboratories, pooled; numbers as filed in NIAID ChemDB.

All rows: whole-cell or culture tests; species: Hepatitis C virus; measure: EC50

An empty or dashed field is not shown. Two numbers with a dash give a range or band. ECn is the concentration giving n% inhibition of infection, replication or growth. Lines come from different laboratories, so protocols vary.

smiles	strain or isolate	changes	cells	read by	value
CC1(C)CC(=O)C2=C(C1)Nc1c(O)cccc1N(C(=O)CCC(=O)NCc1cccnc1)C2c1ccc(OCc2ccccc2)cc1Cl	1b			luciferase / reporter gene / replicon	40.42 µM
NC(=S)Nc1cccc(OCCCCCc2cccc3ccccc23)c1			Ava5-EG(delta4AB)SEAP	reporter gene / fluorescence	0.001–1 µM
CCCCn1c(=O)c2cc(OC)ccc2c2cc(C(O)(C(F)(F)F)C(F)(F)F)c3c(c21)OCO3	1b		LucNeo2 cells	luciferase	0.063 µM
NC(=S)Nc1ccc(OCCCCCc2ccccc2)cc1			Ava5-EG(delta4AB)SEAP	reporter gene / fluorescence	0.001–1 µM
O=C(N[C@@H](C(=O)N1CCC[C@H]1c1ncc(-c2ccc(-c3ccc(-c4cnc([C@@H]5CCCN5C(=O)[C@H](NC(=O)C5CC5)c5ccccc5)s4)cc3)cc2)s1)c1ccccc1)C1CC1	genotype 1b		Huh7.5	luciferase / reporter gene	0.0000033 µM
CC1(C)CC(=O)C2=C(C1)Nc1c(O)cccc1N(C(=O)c1ccc(C(=O)O)cc1)C2c1ccc(OCc2ccccc2)cc1Cl	1b			luciferase / reporter gene / replicon	>32 µM
CNC(=O)c1c(-c2ccc(F)cc2)oc2cc(N(C)S(C)(=O)=O)c(C(N)=O)c(OC)c12			Huh7	replicon	<1 µM
CNC(=O)CNC(=O)N1c2cccc(O)c2NC2=C(C(=O)CC(C)(C)C2)C1c1ccc(OCc2ccccc2)cc1Cl	1b			luciferase / reporter gene / replicon	>100 µM
CNC(=O)c1c(-c2ccc(F)cc2)oc2cc(N3CCOCC3)c(OCC3CC3)cc12			Huh7	replicon	<1 µM
Nc1ncnc2c1c(-c1ccco1)cn2[C@@H]1O[C@H](CO)[C@@H](O)C1(F)F	1a		HCV replicon	replicon	6.04 µM
CNC(=O)c1c(-c2ccc(F)cc2)oc2cc(-c3cc(C)n(C)n3)c(OC(C)C)cc12			Huh7	replicon	<10 µM
CNC(=O)c1c(-c2ccc(F)cc2)oc2cc(N(CCO)S(C)(=O)=O)c(C3CC3)cc12	Con1 genotype 1b		Huh7.5	luciferase	0.0169 µM
CC1(C)CC(=O)C2=C(C1)Nc1c(O)cccc1N(C(=O)CCC(=O)NC(C)(C)C)C2c1ccc(OCc2ccccc2)cc1Cl	1b			luciferase / reporter gene / replicon	6.69 µM
CCOC(=O)c1ccc(OCCCCCOc2cccc(NC(N)=S)c2)cc1			Ava5-EG(delta4AB)SEAP	reporter gene / fluorescence	0.001–1 µM
Nc1ncnc2c1c(-c1cc3ccccc3o1)cn2[C@@H]1O[C@H](CO)[C@@H](O)C1(F)F	1b		HCV replicon	replicon	1.08 µM
NC(=S)Nc1cccc(OCCCCCOc2cccc(C(=O)c3ccccc3)c2)c1			Ava5-EG(delta4AB)SEAP	reporter gene / fluorescence	0.001–1 µM
Nc1ncnc2c1c(-c1ccco1)cn2[C@H]1O[C@H](CO)[C@@H](O)C1(F)F	1a		HCV replicon	replicon	2.04 µM
CCCCN1CCN(C(=S)Nc2cccc(OCc3ccccc3)c2)C1=S			Ava5-EG(delta4AB)SEAP	reporter gene / fluorescence	0.001–1 µM
Nc1ncnc2c1c(-c1ccc3ccccc3c1)cn2[C@@H]1O[C@H](CO)[C@@H](O)C1(F)F	2a		HCV replicon	replicon	0.81 µM
NC(=S)Nc1cccc(OCCCCCOc2cccc(-c3ccccc3)c2)c1			Ava5-EG(delta4AB)SEAP	reporter gene / fluorescence	0.001–1 µM
Nc1ncnc2c1c(I)cn2[C@H]1O[C@H](CO)[C@@H](O)C1(F)F	2a		HCV replicon	replicon	4.67 µM
CNC(=O)c1c(-c2ccc(F)cc2)oc2cc(N(C)S(C)(=O)=O)c(OCCN3CCOCC3)cc12			Huh7	replicon	<1 µM
NC(=S)Nc1ccc2c(c1)Cc1cc(NCCCc3ccccc3)ccc1-2			Ava5-EG(delta4AB)SEAP	reporter gene / fluorescence	0.001–1 µM
Nc1ncnc2c1c(-c1ccccc1)cn2[C@@H]1O[C@H](CO)[C@@H](O)C1(F)F	1b		HCV replicon	replicon	6.49 µM
CNC(=O)c1c(-c2ccc(F)cc2)oc2cc(N(C)S(C)(=O)=O)c(OCc3nnsc3Cl)cc12			Huh7	replicon	<1 µM
CN1CCN(C(=S)Nc2cccc(OCCCCCOc3ccc(-c4ccccc4)cc3)c2)CC1			Ava5-EG(delta4AB)SEAP	reporter gene / fluorescence	0.001–1 µM
CNC(=O)c1c(-c2ccc(F)cc2)oc2cc(N(C)S(C)(=O)=O)c(OCc3nsc(N(C)C4CC4)n3)cc12			Huh7	replicon	<1 µM
COC(=O)N[C@H](C(=O)N1CCC[C@H]1c1ncc(-c2ccc(-c3ccc(-c4cnc([C@@H]5CCCN5C(=O)[C@@H](NC(=O)OC)C(C)C)[nH]4)cc3)cc2)[nH]1)C(C)C	1a	Q30H	Lunet	luciferase	0.0089 µM
NC(=S)Nc1cccc(OCCCCCCCCc2ccccc2)c1			Ava5-EG(delta4AB)SEAP	reporter gene / fluorescence	0.001–1 µM
CNC(=O)c1c(-c2ccccc2)oc2ccc(OCc3ccccc3-c3ccccc3)cc12			Huh7	replicon	<30 µM
Nc1ncnc2c1c(-c1ccoc1)cn2[C@H]1O[C@H](CO)[C@@H](O)C1(F)F	1b		HCV replicon	replicon	1.98 µM

A second listing of 2 rows from above:

| smiles | strain or isolate | changes | cells | read by | value |
|---|---|---|---|---|---|
| COC(=O)N[C@H](C(=O)N1CCC[C@H]1c1ncc(-c2ccc(-c3ccc(-c4cnc([C@@H]5CCCN5C(=O)[C@@H](NC(=O)OC)C(C)C)[nH]4)cc3)cc2)[nH]1)C(C)C | 1a | Q30H | Lunet | luciferase | 0.0089 µM |
| Nc1ncnc2c1c(-c1ccc3ccccc3c1)cn2[C@@H]1O[C@H](CO)[C@@H](O)C1(F)F | 2a |  | HCV replicon | replicon | 0.81 µM |